Test results reported in article PMC10840515.

Molecular target: HLA-DR1 (HLA-DRA*0101, HLA-DRB1*0101) (human)
Assay: ELISA

Work on SARS-CoV-2 Membrane peptide M176-190 yielded an IC50 of 7.9 nM.
